This data set deals with CCCCC/C=C/C(=O)SCCNC(=O)CCNC(=O)[C@H](O)C(C)(C)COP(=O)(O)OP(=O)(O)OC[C@H]1O[C@@H](n2cnc3c(N)ncnc32)[C@H](O)[C@@H]1OP(=O)(O)O. The experiment in a line: purified protein. To be noted: 350 μM NADPH.

One may read the kcat/Km as the turnover number divided by the Michaelis constant. One may read the Km as the concentration of substrate that gives half-maximal velocity. One may read the kcat as the maximal rate divided by the concentration of active sites.

Turning to “saFabI (Staphylococcus aureus subsp. aureus MRSA252; S189A)”, the kcat/Km stood at 25000 ± 667 M⁻¹ s⁻¹. Consider “saFabI (Staphylococcus aureus subsp. aureus MRSA252; Y147F)”, for which the Km was determined as 44.2 ± 14.5 µM, the kcat is 12.1 s⁻¹ and the kcat/Km is 273000 M⁻¹ s⁻¹. In the case of “saFabI (Staphylococcus aureus subsp. aureus MRSA252; D249A)”, the kcat/Km turned out to be 200 ± 16.7 M⁻¹ s⁻¹.

The values above are taken from publication PMC4382590 (Biochemistry, 2015).
